# Replication capacity of HIV-1 mutants, Nef

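Random point mutant libraries of HIV-1 NL4-3, one for each of seven fragments, were passaged in CEM T lymphocytes. The RC index is the frequency of a change after passage round 2 divided by its frequency in the plasmid library.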

Protein: Nef of HIV-1 NL4-3, numbered from its first residue.
Effects on overlapping genes or RNA elements are not listed.

Values are the RC index; higher means better tolerated. The authors read about 0.1 or less as lethal, 0.1-0.2 as attenuated and 0.2 or more as tolerated. Each entry names the wild-type residue, its position and the residue put in its place. Input reads are the counts in the plasmid library. The authors read an index above 1 as above wild type (1.9% of all changes in the genome). Nucleotide positions follow pNL4-3. Clones carried about five changes per kilobase, which can drag down the index of neutral changes.

{"mutation": "E59V", "base": "A8962T", "input reads": "222", "replication capacity index": 0.807}
{"mutation": "E59D", "base": "A8963T", "input reads": "318", "replication capacity index": 1.10}
{"mutation": "A60T", "base": "G8964A", "input reads": "465", "replication capacity index": 1.08}
{"mutation": "A60S", "base": "G8964T", "input reads": "198", "replication capacity index": 0.933}
{"mutation": "Q61E", "base": "C8967G", "input reads": "35", "replication capacity index": 0.927}
{"mutation": "Q61R", "base": "A8968G", "input reads": "312", "replication capacity index": 0.737}
{"mutation": "E62G", "base": "A8971G", "input reads": "225", "replication capacity index": 0.577}
{"mutation": "E62V", "base": "A8971T", "input reads": "208", "replication capacity index": 0.929}
{"mutation": "E62D", "base": "G8972T", "input reads": "313", "replication capacity index": 0.969}
{"mutation": "E63G", "base": "A8974G", "input reads": "256", "replication capacity index": 0.501}
{"mutation": "E63D", "base": "G8975T", "input reads": "249", "replication capacity index": 0.516}
{"mutation": "E64K", "base": "G8976A", "input reads": "120", "replication capacity index": 2.82}
{"mutation": "E64V", "base": "A8977T", "input reads": "194", "replication capacity index": 0.785}
{"mutation": "E65G", "base": "A8980G", "input reads": "259", "replication capacity index": 0.899}
{"mutation": "V66L", "base": "G8982T", "input reads": "46", "replication capacity index": 0.215}
{"mutation": "V66A", "base": "T8983C", "input reads": "196", "replication capacity index": 0.741}
{"mutation": "V66G", "base": "T8983G", "input reads": "67", "replication capacity index": 0.737}
{"mutation": "G67S", "base": "G8985A", "input reads": "258", "replication capacity index": 0.591}
{"mutation": "G67C", "base": "G8985T", "input reads": "188", "replication capacity index": 0.825}
{"mutation": "G67D", "base": "G8986A", "input reads": "227", "replication capacity index": 0.684}
{"mutation": "G67A", "base": "G8986C", "input reads": "83", "replication capacity index": 0.255}
{"mutation": "F68V", "base": "T8988G", "input reads": "109", "replication capacity index": 0.582}
{"mutation": "F68S", "base": "T8989C", "input reads": "310", "replication capacity index": 0.464}
{"mutation": "F68L", "base": "T8990A", "input reads": "204", "replication capacity index": 0.429}
{"mutation": "P69T", "base": "C8991A", "input reads": "131", "replication capacity index": 0.463}
{"mutation": "P69L", "base": "C8992T", "input reads": "157", "replication capacity index": 0.746}
{"mutation": "V70I", "base": "G8994A", "input reads": "301", "replication capacity index": 0.614}
{"mutation": "V70L", "base": "G8994C", "input reads": "118", "replication capacity index": 0.777}
{"mutation": "V70F", "base": "G8994T", "input reads": "214", "replication capacity index": 0.870}
{"mutation": "V70D", "base": "T8995A", "input reads": "455", "replication capacity index": 0.521}
{"mutation": "T71I", "base": "C8998T", "input reads": "217", "replication capacity index": 0.891}
{"mutation": "P72A", "base": "C9000G", "input reads": "54", "replication capacity index": 0.392}
{"mutation": "P72H", "base": "C9001A", "input reads": "282", "replication capacity index": 0.745}
{"mutation": "Q73K", "base": "C9003A", "input reads": "114", "replication capacity index": 0.606}
{"mutation": "Q73P", "base": "A9004C", "input reads": "67", "replication capacity index": 0.863}
{"mutation": "Q73L", "base": "A9004T", "input reads": "277", "replication capacity index": 0.255}
{"mutation": "Q73H", "base": "G9005T", "input reads": "369", "replication capacity index": 0.856}
{"mutation": "V74L", "base": "G9006T", "input reads": "44", "replication capacity index": 0.289}
{"mutation": "V74E", "base": "T9007A", "input reads": "215", "replication capacity index": 0.315}
{"mutation": "P75H", "base": "C9010A", "input reads": "197", "replication capacity index": 0.372}
{"mutation": "L76I", "base": "T9012A", "input reads": "306", "replication capacity index": 0.705}
{"mutation": "L76V", "base": "T9012G", "input reads": "84", "replication capacity index": 0.722}
{"mutation": "R77K", "base": "G9016A", "input reads": "74", "replication capacity index": 1.51}
{"mutation": "R77I", "base": "G9016T", "input reads": "124", "replication capacity index": 0.649}
{"mutation": "R77S", "base": "A9017T", "input reads": "224", "replication capacity index": 0.737}
{"mutation": "P78T", "base": "C9018A", "input reads": "59", "replication capacity index": 0.741}
{"mutation": "P78S", "base": "C9018T", "input reads": "326", "replication capacity index": 1.04}
{"mutation": "P78Q", "base": "C9019A", "input reads": "135", "replication capacity index": 1.84}
{"mutation": "M79K", "base": "T9022A", "input reads": "231", "replication capacity index": 0.556}
{"mutation": "M79T", "base": "T9022C", "input reads": "227", "replication capacity index": 0.298}
{"mutation": "T80P", "base": "A9024C", "input reads": "36", "replication capacity index": 0.509}
{"mutation": "T80S", "base": "A9024T", "input reads": "346", "replication capacity index": 0.567}
{"mutation": "T80I", "base": "C9025T", "input reads": "255", "replication capacity index": 0.858}

The opening 4 entries, copied out:

- E59V (base A8962T, input reads 222) = 0.807
- E59D (base A8963T, input reads 318) = 1.10
- A60T (base G8964A, input reads 465) = 1.08
- A60S (base G8964T, input reads 198) = 0.933

The measurements come from Al-Mawsawi et al. 2014 (doi:10.1186/s12977-014-0124-6).